From PMC6406179 (F1000Research, 2018)

Target: Mannheimia haemolytica leukotoxin (Lkt) (Mannheimia haemolytica, UniProt P16535)
Test: MTT dye-reduction cytotoxicity-blocking assay, BL3 cells
Conditions: read-out: IC50 (uM) aa 5-17, Figure 6A, 13-mer peptides of cattle, sheep, water buffalo, eland, 50 μM to 0.195 μM, non-linear regression, n=3 or 4

CC(C)C[C@H](NC(=O)[C@H](C)NC(=O)[C@H](CC(C)C)NC(=O)[C@H](CC(C)C)NC(=O)CNC(=O)[C@H](C)NC(=O)[C@H](CC(C)C)NC(=O)[C@H](CC(C)C)NC(=O)[C@H](CC(C)C)NC(=O)[C@H](CC(C)C)NC(=O)[C@H](CCC(N)=O)NC(=O)[C@@H]1CCCN1C(=O)[C@@H](N)CS)C(=O)O [C5]
IC50: 1.1 µM
